Anti-infective test results gathered from many reports (values: NIAID ChemDB through PubChem).

Common to all: growth or infection tests; organism: Respiratory syncytial virus; measure: EC50

a–b is a range or a potency band. Blank or dashed fields: not listed here. ECn is the concentration giving n% inhibition of infection, replication or growth. Conditions beyond the fields shown may differ between rows.

compound,strain,cell line,read by,value
COc1c(C)c2c(c(O)c1CC(=O)O)C(=O)OC2,TYPE A/FM-58-8,HeLa,plaque count,0.09 µg/mL
Nc1ncnc2c1ncn2[C@H]1[C@H](O)[C@H](O)[C@]2(CO)O[C@H]12,LONG,HeLa,cytopathic effect,>500 µg/mL
NC(=O)c1ncn([C@@H]2O[C@H](CO)[C@@H](O)[C@H]2O)n1,109,HEP-2,plaque count,4 µg/mL
c1ccc2c(c1)CSSC2,LONG,HeLa,cytopathic effect,3.1 µM
Nc1nc2c(ncn2[C@H]2C[C@@H](O)[C@H](CO)O2)c(=O)[nH]1,A2,VERO B,cytopathic effect,>1000 µM
NCCN1CCC(Nc2nc3ccccc3n2Cc2ncccc2O)CC1,-,HELA/M,MTT,0.0025 µM
CC(C)CCn1c(Cn2c(=O)n(CC(=N)N=[N+]=[N-])c3ccccc32)nc2ccccc21,Long (subtype A),HEP-2,cytopathic effect,0.5 µM
C#Cc1c(C(N)=O)ncn1[C@@H]1O[C@H](CO)[C@@H](O)[C@H]1O,TYPE 3/LONG,HeLa,plaque count,0.13 µg/mL
Cc1cn([C@@H]2C[C@@H](O)[C@H](CO)O2)c(=O)[nH]c1=O,TYPE A,MA-104,-,>100 µM
O=c1cc(-c2ccc(O)c(-c3c(O)cc(O)c4c(=O)cc(-c5ccc(O)cc5)oc34)c2)oc2cc(O)cc(O)c12,-,HEP-2,plaque count,5.5 µg/mL
C/C=C1\[C@H](OC2O[C@H](CO)[C@@H](O)[C@H](O)[C@H]2O)OC=C(C(=O)OC)[C@H]1CC(=O)OC,LONG,HEP-2,cytopathic effect,83.3 µM
Nc1cc(OC[C@H](CO)OCP(=O)(O)O)nc(N)n1,-,-,cytopathic effect,>15 µM
O=c1cc(-c2ccc(O)c(-c3c(O)cc4oc(-c5ccc(O)cc5)cc(=O)c4c3O)c2)oc2cc(O)cc(O)c12,-,HEP-2,plaque count,>100 µg/mL
Nc1ncnc2c1ncn2[C@@H]1C[C@@H](O)[C@H](CO)O1,TYPE A,MA-104,-,>100 µM
Cc1cccc(Cn2c(NC3CCN(CCN)CC3)nc3c(Cl)cccc32)n1,-,-,-,0.126 µM
O=c1n(Cc2nc3ccccc3n2CCCCO)c2cnccc2n1C1CC1,Long A2 B-Washington,-,-,0.009–0.05 µM
[N-]=C=Nc1nncs1,-,HEP-2,cytopathic effect,7.8 µg/mL
O=c1n(Cc2nc3ccccc3n2CCCCO)c2cnccc2n1C1CC1,-,-,-,0.024 µM
C/C=C1/[C@H](O[C@@H]2O[C@H](CO)[C@@H](O)[C@H](O)[C@H]2O)OC=C(C(=O)OC)[C@H]1CC(=O)OCCc1ccc(O)c(O)c1,LONG,HEP-2,cytopathic effect,23.4 µM
O=c1cc(-c2ccc(Oc3c(O)cc4oc(-c5ccc(O)cc5)cc(=O)c4c3O)cc2)oc2cc(O)cc(O)c12,UTAH 89,MA-104,neutral red,>3.2 µg/mL
Nc1ncnc2c1ccn2[C@@H]1O[C@H](CO)[C@H](O)[C@H]1O,LONG,HeLa,cytopathic effect,>4 µg/mL
Cc1cccc(Cn2c(NC3CCN(CCN)CC3)nc3ccccc32)n1,-,HELA/M,MTT,0.158 µM
Nc1cc(OCCOCP(=O)(O)O)nc(N)n1,-,-,cytopathic effect,>190 µM
Nc1cc2[nH]cnc2c(=O)[nH]1,58-14,HeLa,cytopathic effect,1.7 µg/mL
C[C@H](COc1cc(N)nc(N)n1)OCP(=O)(O)O,-,-,cytopathic effect,>180 µM
NC(=O)c1ncn([C@@H]2O[C@H](CO)[C@@H](O)[C@H]2O)n1,LONG,VERO,cytopathic effect,>200 µg/mL
O=c1ccn([C@@H]2O[C@@H](CO)[C@H](O)[C@H]2O)c(=O)[nH]1,A2,VERO B,cytopathic effect,>1000 µM
Cc1nnnn1/C=C/c1ccc(O)c(C(c2ccc(O)cc2)c2cc(/C=N/n3nnnc3C)ccc2O)c1,-,BHK-21,cell fusion,0.0054 µM
Cc1cn([C@H]2C[C@@H](O)[C@H](CO)O2)c(=O)[nH]c1=O,A2,VERO B,cytopathic effect,>1000 µM
CC(=O)Oc1ccc([C@@H]2CC(=O)c3c(cc(OC(C)=O)c(-c4c(OC(C)=O)cc5c(c4OC(C)=O)C(=O)C[C@@H](c4ccc(OC(C)=O)cc4)O5)c3OC(C)=O)O2)cc1,UTAH 89,MA-104,cytopathic effect,>3 µg/mL
CCCc1cc(=O)oc2cc(O)c(C(=O)CC)c(O)c12,-,-,cytopathic effect,2 µg/mL
CCOC(c1cccc(Br)n1)n1c(NC2CCN(CC(N)C(C)C)CC2)nc2ccccc21,-,-,-,0.008 µM
C/C=C1\[C@H](OC2O[C@H](CO)[C@@H](O)[C@H](O)[C@H]2O)OC=C(C(=O)O)[C@H]1CC(=O)OCCc1ccc(O)cc1,LONG,HEP-2,cytopathic effect,>150 µM
CC(C)CCn1c(Cn2c(=O)n(CCCS(=O)(=O)O)c3ccccc32)nc2ccccc21,Long (subtype A),HEP-2,cytopathic effect,0.04 µM
CCOCCOC(c1cccc2cccnc12)n1c(NC2CCN(CC(N)C(C)C)CC2)nc2ccccc21,-,-,-,0.006 µM
C=C(C)n1c(=O)n(Cc2nc3ccccc3n2CCCC(=N)N=[N+]=[N-])c2ccccc21,Long (subtype A),HEP-2,cytopathic effect,0.01 µM
CCCCCCCCCCCCCCCCCCCCCCOCC(C)(COCCCCCCCCCCCCCCCCCCCCCC)CO[C@]1(C(=O)O)C[C@H](OS(=O)(=O)O)[C@@H](NC(C)=O)[C@H]([C@H](OS(=O)(=O)O)[C@@H](COS(=O)(=O)O)OS(=O)(=O)O)O1,K656,HEP-2,plaque count,0.3 µM
Nc1nc2c(ncn2[C@@H]2O[C@@H](CO)[C@H](O)[C@H]2O)c(=O)[nH]1,A2,VERO B,cytopathic effect,>1000 µM
Cc1ccc(O)c(Cn2c(NC3CCN(CCN)CC3)nc3c(C)cccc32)n1,A2,HEP-2,cell fusion,0.0009 µM

A second listing of 4 rows from above:

compound	strain	cell line	read by	value
Nc1ncnc2c1ncn2[C@H]1[C@H](O)[C@H](O)[C@]2(CO)O[C@H]12	LONG	HeLa	cytopathic effect	>500 µg/mL
CCCCCCCCCCCCCCCCCCCCCCOCC(C)(COCCCCCCCCCCCCCCCCCCCCCC)CO[C@]1(C(=O)O)C[C@H](OS(=O)(=O)O)[C@@H](NC(C)=O)[C@H]([C@H](OS(=O)(=O)O)[C@@H](COS(=O)(=O)O)OS(=O)(=O)O)O1	K656	HEP-2	plaque count	0.3 µM
Nc1cc(OC[C@H](CO)OCP(=O)(O)O)nc(N)n1	-	-	cytopathic effect	>15 µM
O=c1n(Cc2nc3ccccc3n2CCCCO)c2cnccc2n1C1CC1	Long A2 B-Washington	-	-	0.009–0.05 µM